Earlier results, collected in paper PMC11206691, “N-Hydroxypiridinedione: A Privileged Heterocycle for Targeting the HBV RNase H” (Molecules, 2024).

Tested on: HBV replication
Conditions: CC50/EC50, earlier inhibitors; cited from earlier work
For `COc1ccc(CON=C(C)c2c(C)cc(=O)n(O)c2O)cc1` [A24], the SI is given as 352.
For `O=C(Nc1ccc2c(c1)C(=O)N(O)C(=O)C2C(=O)NCc1ccc(F)cc1)c1ccccc1` (centres unmarked) [HID], the SI is listed as 71.
For `NCc1ccc(-c2ccc(Cc3cc(=O)n(O)c4ncccc34)cc2)cc1` [HNO], the SI is given as 2.
For `C/C(=N\c1cccc(Br)c1)c1c(C)cc(=O)n(O)c1O` [HPD imine], the SI is listed as 58.
For `COC(=O)c1c2c(cc(O)c(=O)c1O)COC2=O` [a-HT], the SI is listed as over 154.
